Results reported in US6489103.

Target: M.HaeIII DNA methyltransferase (Haemophilus influenzae biogroup aegyptius) (UniProt P20589)
Assay: enzyme reaction in vitro
Details: self-methylation in emulsion protects from HaeIII but not HhaI cleavage; SAM 80 uM, 25 C, 2 h; protein translated in vitro; label: DIG and biotin on the full 1194 bp fragment

## AGCTTGCATGCCTGCGGTACCGGCCATGCGCATGGCCTAGCGCATGCGGCCGCTAGCGCG / AATTCGCGCTAGCGGCCGCATGCGCTAGGCCATGCGCATGGCCGGTACCGCAGGCATGCA
  activity on this sequence: active
